Compound potency records, mixed from different reports. Data source: NIAID ChemDB in PubChem.

All rows: tests in culture; species: Herpes simplex virus 2; endpoint: EC50

Blank or dashed fields: not listed here.

smiles	read by	cells	strain	result
CC(C)NS(=O)(=O)c1ccccc1C(=O)N/N=C/c1ccc(-c2cccs2)cc1	cytopathic effect	HEL	G	>100 µM
Cn1cc(C(=O)NCc2ccc(Cl)cc2)c(=O)c2cc(CN3CCOCC3)ccc21	plaque count	HFF	11680 (ACV-resistant)	2.9 µM
CO[C@@H]1[C@H](O)[C@@H](CO)O[C@H]1c1ccccc1	cytopathic effect	E6SM	G	>400 µg/mL
O=c1[nH]c(=O)n([C@H]2C[C@H](O)[C@@H](CO)O2)cc1/C=C/Br	cytopathic effect	PRK	LYONS	40 µg/mL
Cc1cn(N2CC[C@H](CO)[C@H]2CO)c(=O)[nH]c1=O	cytopathic effect	VERO	-	>100 µg/mL
CCc1cn([C@H]2C[C@H](O)[C@@H](COP(=O)(O)O)O2)c(=O)[nH]c1=O	cytopathic effect	PRK	196	0.2 µg/mL
CC1(C)[C@@H](CO)CC[C@@]1(C)Cn1cnc2c(=O)[nH]cnc21	cytopathic effect	E6SM	G	>400 µg/mL
OC[C@H]1O[C@@H](n2c(CCc3ccccn3)nc3cc(Cl)c(Cl)cc32)[C@H](O)[C@@H]1O	cytopathic effect	HEL	-	>100 µg/mL
O=C(NCc1ccc(Cl)cc1)c1cn2c3c(cc(CN4CCOCC4)cc3c1=O)OC(c1cccnc1)C2	plaque count	HFF	L6250234 (WILD TYPE)	>16.2 µM
OC/C(=C/Cn1cnc2c(Cl)ncnc21)c1ccccc1	cytopathic effect	CCL18	-	>100 µg/mL
CC1(C)[C@@H](CCO)C[C@H]1n1nnc2c(N)nc(N)nc21	cytopathic effect	E6SM	G	150 µg/mL
CC1(C)[C@@H](CO)CC[C@@]1(C)Cn1cc(I)c(=O)[nH]c1=O	cytopathic effect	E6SM	G	>400 µg/mL
CC1(C)[C@@H](CCO)C[C@H]1n1nnc2c(=O)[nH]c(N)nc21	cytopathic effect	E6SM	G	300 µg/mL
CSCc1cn([C@H]2C[C@H](O)[C@@H](CO)O2)c(=O)[nH]c1=O	cytopathic effect	PRK	LYONS G 196	4 µg/mL
CCc1cn([C@H]2C[C@H](O)[C@@H](CO)O2)c(=O)[nH]c1=O	cytopathic effect	PRK	196	2 µg/mL
CC(=O)OC[C@H]1[C@H](COC(C)=O)[C@@H](CO)O[C@H]1n1cnc2c(N)ncnc21	plaque count	MEF	MS	277 µM
CC1(C)[C@@H](CO)CC[C@@]1(C)Cn1cnc2c(N)ncnc21	cytopathic effect	E6SM	G	>400 µg/mL
C/C(=C\Cn1cnc2c(=O)[nH]cnc21)CO	cytopathic effect	CCL18	-	>100 µg/mL
CC[Si]1(C(C)C)O[C@H]2[C@@H](O)[C@H](c3ccccc3)O[C@@H]2CO[Si](C(C)C)(C(C)C)O1	cytopathic effect	E6SM	G	>3.2 µg/mL
Nc1ncnc2c1ncn2C1C[C@@H](CO)[C@@H](CO)S1	cytopathic effect	VERO	-	>100 µg/mL
Cc1cn([C@@H]2O[C@H](COP(=O)(O)O)[C@@H](O)[C@@H]2O)c(=O)[nH]c1=O	cytopathic effect	HELF	HG-52	1 µg/mL
Nc1ncnc2c1ncn2C1OC[C@H](CO)[C@H]1CO	cytopathic effect	VERO	-	>100 µg/mL
CCc1cn([C@H]2C[C@H](O)[C@@H](CO)O2)c(=O)[nH]c1=O	cytopathic effect	PRK	G	4 µg/mL
Nc1ccn(N2C[C@H](CO)[C@H]2CO)c(=O)n1	cytopathic effect	VERO	-	>100 µg/mL
Nc1nc2c(ncn2/C=C2/CC2(CO)CO)c(=O)[nH]1	cytopathic effect	HFF	-	>404 µM
Cc1ccc(S(=O)(=O)NNC(=O)c2ccccc2S(=O)(=O)NC(C)C)cc1	cytopathic effect	HEL	G	>100 µM
Nc1nc2c(ncn2N2CC[C@H](CO)[C@H]2CO)c(=O)[nH]1	cytopathic effect	VERO	-	>100 µg/mL
Nc1nc2c(ncn2C/C=C(/CO)c2ccccc2)c(=O)[nH]1	cytopathic effect	CCL18	-	>100 µg/mL
Nc1nc2c(ncn2N2C[C@H](CO)[C@H]2CO)c(=O)[nH]1	cytopathic effect	VERO	-	6.32 µg/mL
OC[C@H]1O[C@@H](n2c(SCc3ccccn3)nc3ccccc32)[C@H](O)[C@@H]1O	cytopathic effect	HEL	-	>100 µg/mL
OCC(=CCn1cnc2c(Cl)ncnc21)CO	cytopathic effect	CCL18	-	>100 µg/mL
OCCOCn1c(SCc2ccccn2)nc2ccccc21	cytopathic effect	HEL	-	>100 µg/mL
Nc1ccn(C[C@@H](CO)OCP(=O)(O)O)c(=O)n1	cytopathic effect	HEL	G	2 µM
OC[C@H]1O[C@@H](n2c(CCc3ccccn3)nc3ccccc32)[C@H](O)[C@@H]1O	cytopathic effect	HEL	-	>100 µg/mL
CC1(C)[C@@H](CCO)C[C@H]1n1cnc2c(N)nc(N)nc21	cytopathic effect	E6SM	G	>400 µg/mL
Cc1cn(C2OC[C@H](CO)[C@H]2CO)c(=O)[nH]c1=O	cytopathic effect	VERO	-	>100 µg/mL
C/C(=C\Cn1cnc2c(=O)[nH]c(N)nc21)CO	cytopathic effect	CCL18	-	>100 µg/mL
Cc1cccc(C)c1N(CC(=O)Nc1ccc(-c2ncon2)cc1)C(=O)C1CCS(=O)(=O)CC1	plaque count	HEF	2 (G)	0.028 µM
CC(C)NS(=O)(=O)c1ccccc1-c1n[nH]c(=S)o1	cytopathic effect	HEL	G	>100 µM
Nc1ncnc2c1ncn2CC=C(CO)CO	cytopathic effect	CCL18	-	>100 µg/mL

Repeating the final 2 entries:

| smiles | read by | cells | strain | result |
|---|---|---|---|---|
| CC(C)NS(=O)(=O)c1ccccc1-c1n[nH]c(=S)o1 | cytopathic effect | HEL | G | >100 µM |
| Nc1ncnc2c1ncn2CC=C(CO)CO | cytopathic effect | CCL18 | - | >100 µg/mL |

Conditions beyond the fields shown may differ between rows. ECn: concentration that inhibits the pathogen or its effect by n%.